Results reported in patent publication US20140227335A1 (priority 2012, published 2014).
Like-named read-outs stand apart in the source and are kept apart here.

What was measured:
[1] = test system: HIV-1; assay: Drug resistance study in freshly activated human PBMCs; conditions: freshly activated human PBMCs (2 donors), 12 days (data not shown)
[2] = test system: VSV-Gpp; assay: VSV-Gpp infectivity after PD pre-treatment (spinoculation of Huh-7.5 cells); format: cell-based, HIV lentivirus pseudotyped with VSV-G; conditions: for IC50: read-out: IC50 for VSV-Gpp
[3] = test system: Jc1 HCVcc; assay: HCVcc infection assay (Gluc reporter, Huh-7.5 cells); format: cell-based, HCV
[4] = test system: VSV-Gpp; assay: VSV-Gpp virion lysis (RNase A, viral RNA by qRT-PCR); parameters: species or system HIV lentivirus pseudotyped with VSV-G
[5] = test system: primary isolates of HIV and SIV; assay: HIV-1, HIV-2, SIV infectivity assays in TZM-bl cells (all isolates, summary); format: cell-based
[6] = 150 μM PD, 37° C., 30 min, RNase A

## N=C1Sc2ccccc2C2=NCCCN12 [PD, PD 404,182]
[1]
  emergence of viral resistance: no emergence of viral resistance was observed
[2]; less than 5 min of incubation with virus
  loss of viral infectivity: > 99%
[2]; virus stock diluted 5-fold in fresh complete growth medium
  IC50: 4600 nM
[2]; virus stock diluted 500-fold in fresh complete growth medium
  IC50: 500 nM
[3]
  selectivity index (CC50/IC50) for HCV: > 27
[4]; [6]
  RNase-mediated degradation of VSV-Gpp RNA relative to DMSO-treated virus: 30 fold
  VSV-Gpp RNA remaining: 3.7%
[4]; 300 μM PD, 5 min virus-PD pre-incubation
  virions lysed (genomic RNA release): 40%
[5]
  therapeutic index / selectivity index (CC50/IC50) for HIV: > 300
